## Percent effect of library compounds

Source: ChEMBL document CHEMBL3988442, “University of Dundee, Small-Polar-MMV Screening Library” (2021).

A: 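Phenotypic screen: M. tuberculosis growth, glucose 7H9 medium, 3 days; the read-out is not stated. Tested at 50 µM. Direction is inferred from retests: higher values go with more growth inhibition. About 69,000 compounds were tested under these conditions; 1.1% (about 760) showed 50% or more at least once.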
B: 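Whole-cell growth test on Mycobacterium tuberculosis, read after 4 days in a medium based on cholesterol and the lipid DPPC; the read-out is not stated. Concentration: 50 µM. Direction is inferred from retests: higher values go with more growth inhibition. Size under these conditions: about 69,000 compounds, about 370 of them at 50% or above in at least one test.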

Each number is a percent effect as filed.
The controls that fix the scale are not given in the record; negative values are as filed.
Many other results are left out here, so strong results are more common than in the screen.
Two or more numbers in one place are separate tests of the same structure; such repeats can differ widely.
A dash means the value is not listed here; it may have been measured.

Compound	A	B
CN(C)CCN1CCOCC2(C1)CN(Cc1ccsc1)CCO2.O=C(O)C(F)(F)F.O=C(O)C(F)(F)F.O=C(O)C(F)(F)F (centres undefined)	-	94.79%
COc1ccc(C(C)Nc2ncnc3c2NC(=O)CN3)cc1 (centres undefined)	-10.12%	-
COc1cc(C)nc(N2CCN(C(=O)c3ccc(Cl)o3)CC2)n1	39.96%	-
[H][C@]12CC[C@]([H])(CN(S(=O)(=O)c3cccnc3)C1)N(Cc1ccccc1)C2	-1.052%	-
COC(=O)c1cnc(/C=C/c2ccc(C(=O)O)cc2)s1	-	67.1%
Cc1n[nH]c(C2CN(C(=O)c3cnc[nH]3)CCO2)n1 (centres undefined)	-23.23%	-
Cc1ccc(N2N=C(C(=O)NCC3CC3)S(=O)(=O)c3cccnc32)cc1	10.91%	-13.82%
N#Cc1ncn(CCC(=O)Nc2ccc(Cl)cc2F)n1	-	-16.45%
CC(=O)NS(=O)(=O)c1ccc(F)c(C(F)(F)F)c1	15.15% & 0.9847%	-
O=C(CC1CCC1)N1CCCC(CO)(CC2CC2)C1 (centres undefined)	-17.86% & 0.4176%	-0.8156%
COCC(=O)NC(C)Cc1cccc(Cl)c1 (centres undefined)	62.66%	-
O=C(O)C(F)(F)F.O=C(O)C(F)(F)F.O=C(O)C(F)(F)F.[H][C@]12C[C@@H](CN3CCCC3)N(C)[C@@]1([H])CCN(Cc1ccoc1)C2	-3.038% & -37.85%	-
O=C(NC1=NCCCN1c1ccc(Cl)cc1)c1cccc(Cl)c1	-68.83%	-
CC(Cn1cc(Br)cn1)C(=O)Nc1ccn(C)n1 (centres undefined)	-51.29%	-
O=C(C1CC2(CCNCC2)CN1)N1CCN(c2cccc(Cl)c2Cl)CC1 (centres undefined)	50.08%	-
CCCC(=O)N(CCCN1CCOCC1)c1nc2c(C)c(C)ccc2s1.Cl	31.05% & 39.74%	22.41%
Cc1cnc(NC(=O)c2csc(NC3CCCC3)n2)s1	69.97% & -0.8215%	-
CC(Cn1cc(Br)cn1)C(=O)Nc1ccc(C(N)=O)cc1 (centres undefined)	6.473%	-
CC(C)C(NC(=O)c1cnc(N2CCOCC2)nc1)c1cccs1 (centres undefined)	60.96%	-
COC(=O)NCC(=O)N1CCC(c2cc3ccccc3[nH]2)CC1	18.08%	-
CCOCCC(=O)Nc1cc(C(N)=O)ccc1N1CCCC(C)C1 (centres undefined)	-9.131%	-
NC(=O)c1ccc(CN2C(=O)C3(CCNCC3)Nc3ccccc32)cc1	14.58%	3.983%
COCCn1nc(C(=O)N(C)Cc2cnn(C)c2)ccc1=O	-13.84% & -11.15%	-
O=C(c1cnccn1)N(CCO)Cc1cc(Br)ccc1F	2.991% & 8.406%	-
COCC1CCN(c2nc(C(C)(C)C)nc3c2cnn3C)C1 (centres undefined)	47.83%	-
CN(C)c1ccc(CC(=O)N2CCOCC(O)C2)cc1 (centres undefined)	-26%	-13.69%
O=C(Nc1nncs1)c1ccc(O)nc1	-26.85%	-
CCCC(C)N(C)Cc1nnc(-c2ccc(Br)s2)o1 (centres undefined)	48.23%	54.19% & 42.92%
CN(C(=O)CC1=CCCCC1)C1CCCN(CCc2ccccc2)C1 (centres undefined)	1.74% & 11.3%	-
[H][C@@]12CCN(C[C@@H]1CC)[C@@H](CNCc1ccc(OC)cc1)C2	-7.376% & 7.121%	13.47%
NC(=O)c1cnc(NC2CCC(c3ccccc3)CC2)c(Cl)c1 (centres undefined)	4.792% & 21.27%	7.568%
COCCn1ccc(NC(=O)Nc2cccc(C#N)c2)n1	6.651%	-
O=C(NCCC1Cc2ccccc2C1)N1CCCC(O)C1 (centres undefined)	-16.49% & -9.279%	-
Cc1ccc(CN(CCCn2ccnc2)Cc2[nH]cnc2C)s1.O=C(O)CC(O)(CC(=O)O)C(=O)O	1.074%	-
COCCN1CCN(CCS(=O)(=O)c2cccc(OC)c2)CC1	23.23%	7.449%
COCC(C)(CCO)NC(=O)Nc1cccc(F)c1C (centres undefined)	17.13%	-
COc1c(C)cnc(CN2CCCC2c2noc(C3CC3)n2)c1C (centres undefined)	-16.05%	-
CS(=O)(=O)N1CCCC(C(=O)Nc2cnn(Cc3ccc(F)cc3)c2)C1 (centres undefined)	-5.394%	-
CC(Nc1nc(-c2ccccc2)nc2c1CCNCC2)c1nccs1 (centres undefined)	41.12%	-
Cc1nc(C)c(C(=O)N2CCc3c(C)cccc32)o1	-	12.81%
Cc1cnn(CC(=O)NCC2(O)CCCc3ccccc32)c1 (centres undefined)	-7.338%	3.621%
CCc1nc(-c2cccc(C(=O)O)c2)no1	-22.37%	-19.7%
Oc1nc(N2CCCC2)nc2c1CCN(Cc1ccsc1)CC2	-5.78%	11.27%
Cc1cc(N2CCCC2Cn2nc(C)cc2C)n2ncnc2n1 (centres undefined)	1.97%	-
CCNC(=O)CCCC(=O)N1CCc2cc(Cl)cc(Cl)c2C1	71.36%	-
OCC(CO)Nc1cccc(C(F)(F)F)n1	3.544%	-5.428%
Cc1cccc(CNC(=O)Nc2ccc3c(c2)CCCC(=O)N3)c1	-	-5.785%
Cc1cnn(CC2CN(c3ncnc4c3CCC4)CCO2)c1 (centres undefined)	20.36% & 7.355%	-
O=C(C1CC(=O)N(c2ccccc2Br)C1)N1CCCCCC1 (centres undefined)	6.776%	-27.47%
COc1ccc(-c2noc(C(CC(C)C)N3CCCCC3=O)n2)cn1 (centres undefined)	22.66%	4.518%
CN(CCCO)Cc1cc(Cl)ccc1OCC(O)CN1CCCCCC1 (centres undefined)	50.48%	2.139%
Cc1ncsc1C(=O)NCCNC(=O)c1cccs1	9.785%	-
O=C(O)C(F)(F)F.[H][C@@]12CN(c3cccnc3)CC[C@]1([H])CN(c1cccc(F)c1)C2	34.96%	-
CNS(=O)(=O)CC1CCCN1c1ccc(Br)cn1 (centres undefined)	-36.9%	-

Once more, the final 6:

* O=C(C1CC(=O)N(c2ccccc2Br)C1)N1CCCCCC1 (centres undefined) : A: 6.776%; B: -27.47%
* COc1ccc(-c2noc(C(CC(C)C)N3CCCCC3=O)n2)cn1 (centres undefined) : A: 22.66%; B: 4.518%
* CN(CCCO)Cc1cc(Cl)ccc1OCC(O)CN1CCCCCC1 (centres undefined) : A: 50.48%; B: 2.139%
* Cc1ncsc1C(=O)NCCNC(=O)c1cccs1 : A: 9.785%
* O=C(O)C(F)(F)F.[H][C@@]12CN(c3cccnc3)CC[C@]1([H])CN(c1cccc(F)c1)C2 : A: 34.96%
* CNS(=O)(=O)CC1CCCN1c1ccc(Br)cn1 (centres undefined) : A: -36.9%